Compound potency records, mixed from different reports. Data source: NIAID ChemDB in PubChem.

All rows: tests on isolated targets; organism: HIV-1; target: Reverse transcriptase; read-out: fold resistance

Fold resistance has wild type as its base.

{"compound": "CCc1ccc(-n2c(CF)nnc2SCC(=O)Nc2ccc(S(=O)(=O)NC)cc2Cl)c2ccccc12", "read by": "nucleotide incorporation / radiometric", "mutations": "RT-Y188L", "result": ">1"}
{"compound": "CCN1c2ncc(CCOc3ccc(S(=O)(=O)NC(C)=O)c4ccccc34)cc2C(=O)N(C)c2cccnc21", "read by": "nucleotide incorporation / radiometric", "mutations": "RT-V106A", "result": ">10"}
{"compound": "CCc1ccc(-n2c(CF)nnc2SCC(=O)Nc2ccc(S(N)(=O)=O)cc2Cl)c2c1CCCC2", "read by": "nucleotide incorporation / radiometric", "mutations": "RT-Y188L", "result": ">2"}
{"compound": "CCN1c2ncc(CCOc3ccc(-c4cc[n+]([O-])cc4)cc3)cc2C(=O)N(C)c2cccnc21", "read by": "nucleotide incorporation / radiometric", "mutations": "RT-K103N Y181C", "strain": "IIIB", "result": "1"}
{"compound": "CCN1c2ncc(CCOc3ccc(C(=O)O)c4c3CCN(C(C)=O)C4)cc2C(=O)N(C)c2cccnc21", "read by": "nucleotide incorporation / radiometric", "mutations": "RT-V106A", "result": ">10"}
{"compound": "CCN1c2ncc(CCOc3ccc(-c4ccc(C(=O)O)cc4)cc3F)cc2C(=O)N(C)c2cccnc21", "read by": "nucleotide incorporation / radiometric", "mutations": "RT-K103N Y181C", "strain": "IIIB", "result": ">2"}
{"compound": "NS(=O)(=O)c1ccc(NC(=O)CSc2nnc(Br)n2-c2ccc3c4c(cccc24)CC3)c(Cl)c1", "read by": "nucleotide incorporation / radiometric", "mutations": "RT-Y188L", "result": ">1"}
{"compound": "CCN1c2ncc(CCOc3ccc(CCC(=O)O)c4ccccc34)cc2C(=O)Nc2c(C)cc(F)nc21", "read by": "nucleotide incorporation / radiometric", "mutations": "RT-Y188L", "result": ">10"}
{"compound": "CCN1c2ncc(CCOc3ccc(C(=O)Nc4nc(CC(=O)O)cs4)cc3C)cc2C(=O)N(C)c2cccnc21", "read by": "nucleotide incorporation / radiometric", "mutations": "RT-K103N Y181C", "strain": "IIIB", "result": "1"}
{"compound": "CCN1c2ncc(CCOc3cccc4c3ccc[n+]4[O-])cc2C(=O)Nc2c(C)cc(Cl)nc21", "read by": "nucleotide incorporation / radiometric", "mutations": "RT-K103N Y181C", "result": "13"}
{"compound": "Cc1cc(C2CC2)c2ccccc2c1-n1c(Br)nnc1SCC(=O)Nc1ccc(S(N)(=O)=O)cc1Cl", "read by": "nucleotide incorporation / radiometric", "mutations": "RT-Y188L", "result": ">1"}
{"compound": "CCN1c2ncc(CCOc3ccc(C(=O)O)c4c3CCC4)cc2C(=O)N(C)c2cccnc21", "read by": "nucleotide incorporation / radiometric", "mutations": "RT-Y188L", "result": ">10"}
{"compound": "CCc1cc(CCc2nc3ccccc3o2)c(=O)[nH]c1C", "read by": "nucleotide incorporation", "mutations": "RT-Y181W", "result": "16.8"}
{"compound": "CCN1c2ncc(CCOc3ccc(C(=O)NNC)cc3C)cc2C(=O)N(C)c2cccnc21", "read by": "nucleotide incorporation / radiometric", "mutations": "RT-K103N Y181C", "strain": "IIIB", "result": "1"}
{"compound": "CCN1c2ncc(CCOc3ccc(CC(C)C(=O)O)c4ccccc34)cc2C(=O)N(C)c2ccc(C)nc21", "read by": "nucleotide incorporation / radiometric", "mutations": "RT-V106A", "result": ">10"}
{"compound": "CCN1c2ncc(CCOc3ccc(-c4ccc(O)c(C(=O)O)c4)cc3C)cc2C(=O)N(C)c2cccnc21", "read by": "nucleotide incorporation / radiometric", "mutations": "RT-K103N Y181C", "strain": "IIIB", "result": ">1"}
{"compound": "COc1ccc2c(C3CC3)ccc(-n3c(Br)nnc3SCC(=O)Nc3ccc(S(N)(=O)=O)cc3Cl)c2c1", "read by": "nucleotide incorporation / radiometric", "mutations": "RT-Y188L", "result": ">1"}
{"compound": "CCN1c2ncc(CCOc3ccc(NC(=O)c4ccccc4C(=O)O)cc3C)cc2C(=O)N(C)c2cccnc21", "read by": "nucleotide incorporation / radiometric", "mutations": "RT-K103N Y181C", "strain": "IIIB", "result": ">2"}
{"compound": "CCc1ccc(-n2c(Br)nnc2SCC(=O)Nc2ccc(S(=O)(=O)O)cc2Br)c2ccccc12", "read by": "nucleotide incorporation / radiometric", "mutations": "RT-Y188L", "result": ">1"}

A second listing of 2 rows from above:

compound	read by	mutations	strain	result
CCc1cc(CCc2nc3ccccc3o2)c(=O)[nH]c1C	nucleotide incorporation	RT-Y181W		16.8
CCc1ccc(-n2c(CF)nnc2SCC(=O)Nc2ccc(S(=O)(=O)NC)cc2Cl)c2ccccc12	nucleotide incorporation / radiometric	RT-Y188L		>1

An empty or dashed field is not shown. Neighbouring rows are from separate reports.